Test [1] addresses full-length gp120 monomer (HIV-1 (isolate not stated)) (UniProt P20871). The test can be described thus: ITC. For orientation: In ITC the heat of successive injections is recorded.
For test [2], the target named is full-length gp120 pre-complexed with PGT124 (HIV-1 (isolate not stated) | human) (UniProt P20871). The test can be described thus: ITC.

As a reminder, the Kd is the free concentration of one partner at which half of the binding sites on the other are occupied at equilibrium, for simple one-to-one binding. A higher Kd goes with a looser complex.

With “two-domain soluble CD4 (from UniProt P01730 26-208) (domain or fragment)”, the Kd in test [1] is 55 nM; in test [2], 50 nM.

Source of the values: article PMC4278586.
